Legend:
[1] = test system: HIV-1HXB2 Env-mediated cell-cell fusion; assay type: cell-based; conditions: TZM-bl target, HL2/3 effector, 6 h coculture at 37 C, luciferase; triplicate, repeated three times, mean ± SD; SD; read-out: IC50, inhibition of HIV-1HXB2 Env-mediated cell-cell fusion
[2] = target: N36 (gp41 NHR-derived target mimic peptide) (Human immunodeficiency virus type 1 group M subtype B, UniProt P04578); experiment: CD spectroscopy of inhibitor complexed with N36; assay type: binding, HIV-1; conditions: thermal denaturation of complex at 222 nm, 20-98 C, 2 C/min, each peptide 10 μM in PBS; repeated two times, representative data

Structure (SMILES): CC[C@H](C)[C@H](NC(=O)[C@H](CC(C)C)NC(=O)[C@H](CCC(=O)O)NC(=O)[C@H](CCC(=O)O)NC(=O)[C@@H](NC(=O)[C@H](CCCCN)NC(=O)[C@H](CCCCN)NC(=O)[C@@H](NC(=O)[C@H](Cc1ccc(O)cc1)NC(=O)[C@H](CCC(=O)O)NC(=O)[C@H](CCC(=O)O)NC(=O)[C@@H](NC(=O)[C@H](CCCCN)NC(=O)[C@H](CCCCN)NC(=O)[C@H](CC(=O)O)NC(=O)[C@H](Cc1c[nH]c2ccccc12)NC(=O)[C@H](CCC(=O)O)NC(=O)[C@H](CCC(=O)O)NC(=O)[C@H](Cc1c[nH]c2ccccc12)NC(=O)[C@@H](NC(=O)[C@H](CCSC)NC(C)=O)[C@@H](C)O)[C@@H](C)CC)[C@@H](C)O)[C@@H](C)CC)C(=O)N[C@@H](CCCCN)C(=O)N[C@@H](CCCCN)C(=O)N[C@@H](CO)C(=O)N[C@@H](CCC(=O)O)C(=O)N[C@@H](CCC(=O)O)C(=O)N[C@@H](CCC(N)=O)C(=O)N[C@@H](CCC(N)=O)C(=O)N[C@@H](CCCCN)C(=O)N[C@@H](CCCCN)C(=O)N[C@@H](CC(N)=O)C(=O)N[C@@H](CCC(=O)O)C(=O)N[C@@H](CCCCN)C(=O)N[C@@H](CCC(=O)O)C(=O)N[C@@H](CC(C)C)C(=O)N[C@@H](CCCCN)C(N)=O [MT-SC34EK]
- IC50 [1]: 0.7 ± 0.2 nM
- CD data (with N36) Tm (°C) [2]: 83 °C

Structure (SMILES): CC[C@H](C)[C@H](NC(=O)[C@H](CC(C)C)NC(=O)[C@H](CCC(=O)O)NC(=O)[C@H](CCC(=O)O)NC(=O)[C@@H](NC(=O)[C@H](CCCCN)NC(=O)[C@H](CCCCN)NC(=O)[C@@H](NC(=O)[C@H](Cc1ccc(O)cc1)NC(=O)[C@H](CCC(=O)O)NC(=O)[C@H](CCC(=O)O)NC(=O)[C@@H](NC(=O)[C@H](CCCCN)NC(=O)[C@H](CCCNC(=N)N)NC(=O)[C@H](CC(=O)O)NC(=O)[C@H](Cc1c[nH]c2ccccc12)NC(=O)[C@H](CCC(=O)O)NC(=O)[C@H](CCC(=O)O)NC(=O)[C@H](Cc1c[nH]c2ccccc12)NC(=O)[C@@H](NC(=O)[C@H](CCSC)NC(C)=O)[C@@H](C)O)[C@@H](C)CC)[C@@H](C)O)[C@@H](C)CC)C(=O)N[C@@H](CCCCN)C(=O)N[C@@H](CCCCN)C(=O)N[C@@H](CO)C(=O)N[C@@H](CCC(N)=O)C(=O)N[C@@H](CC(N)=O)C(=O)N[C@@H](CCC(N)=O)C(=O)N[C@@H](CCC(N)=O)C(=O)N[C@@H](CCC(=O)O)C(=O)N[C@@H](CCCCN)C(=O)N[C@@H](CC(N)=O)C(N)=O [MT-WQ-EKN]
- IC50 [1]: 0.8 ± 0.1 nM
- CD data (with N36) Tm (°C) [2]: 74.3 °C

Structure (SMILES): CC[C@H](C)[C@H](NC(=O)[C@H](CCC(N)=O)NC(=O)[C@H](CCC(N)=O)NC(=O)[C@H](CC(N)=O)NC(=O)[C@H](CCC(N)=O)NC(=O)[C@H](CO)NC(=O)[C@H](CCCCN)NC(=O)[C@H](CCCCN)NC(=O)[C@@H](NC(=O)[C@H](CC(C)C)NC(=O)[C@H](CCC(=O)O)NC(=O)[C@H](CCC(=O)O)NC(=O)[C@@H](NC(=O)[C@H](CCCCN)NC(=O)[C@H](CCCCN)NC(=O)[C@@H](NC(=O)[C@H](Cc1ccc(O)cc1)NC(=O)[C@H](CCC(=O)O)NC(=O)[C@H](CCC(=O)O)NC(=O)[C@@H](NC(=O)[C@H](CCCCN)NC(=O)[C@H](CCCNC(=N)N)NC(=O)[C@H](CC(=O)O)NC(=O)[C@H](Cc1c[nH]c2ccccc12)NC(=O)[C@H](CCC(=O)O)NC(=O)[C@H](CCC(=O)O)NC(=O)[C@H](Cc1c[nH]c2ccccc12)NC(=O)[C@@H](NC(=O)[C@H](CCSC)NC(C)=O)[C@@H](C)O)[C@@H](C)CC)[C@@H](C)O)[C@@H](C)CC)[C@@H](C)CC)C(=O)N[C@@H](CC(=O)O)C(=O)N[C@@H](CC(C)C)C(N)=O [MT-WQ-IDL, reference compound]
- IC50 [1]: 0.7 ± 0.1 nM
- CD data (with N36) Tm (°C) [2]: 74.6 °C

Structure (SMILES): CC[C@H](C)[C@H](NC(=O)[C@H](CC(C)C)NC(=O)[C@H](CCC(=O)O)NC(=O)[C@H](CCC(=O)O)NC(=O)[C@@H](NC(=O)[C@H](CCCCN)NC(=O)[C@H](CCCCN)NC(=O)[C@@H](NC(=O)[C@H](Cc1ccc(O)cc1)NC(=O)[C@H](CCC(=O)O)NC(=O)[C@H](CCC(=O)O)NC(=O)[C@@H](NC(=O)[C@H](CCCCN)NC(=O)[C@H](CCCCN)NC(=O)[C@H](CC(=O)O)NC(=O)[C@H](Cc1c[nH]c2ccccc12)NC(=O)[C@H](CCC(=O)O)NC(=O)[C@H](CCC(=O)O)NC(=O)[C@H](Cc1c[nH]c2ccccc12)NC(C)=O)[C@@H](C)CC)[C@@H](C)O)[C@@H](C)CC)C(N)=O [SC19EK]
- IC50 [1]: 217 ± 16.5 nM
- CD data (with N36) Tm (°C) [2]: 57.7 °C

Structure (SMILES): CC[C@H](C)[C@H](NC(=O)[C@H](CC(C)C)NC(=O)[C@H](CCC(=O)O)NC(=O)[C@H](CCC(=O)O)NC(=O)[C@@H](NC(=O)[C@H](CCCCN)NC(=O)[C@H](CCCCN)NC(=O)[C@@H](NC(=O)[C@H](Cc1ccc(O)cc1)NC(=O)[C@H](CCC(=O)O)NC(=O)[C@H](CCC(=O)O)NC(=O)[C@@H](NC(=O)[C@H](CCCCN)NC(=O)[C@H](CCCCN)NC(=O)[C@H](CC(=O)O)NC(=O)[C@H](Cc1c[nH]c2ccccc12)NC(=O)[C@H](CCC(=O)O)NC(=O)[C@H](CCC(=O)O)NC(=O)[C@H](Cc1c[nH]c2ccccc12)NC(C)=O)[C@@H](C)CC)[C@@H](C)O)[C@@H](C)CC)C(=O)N[C@@H](CCCCN)C(N)=O [SC20EK]
- IC50 [1]: 202 ± 5.4 nM
- CD data (with N36) Tm (°C) [2]: 57.5 °C

Structure (SMILES): CC[C@H](C)[C@H](NC(=O)[C@H](CC(C)C)NC(=O)[C@H](CCC(=O)O)NC(=O)[C@H](CCC(=O)O)NC(=O)[C@@H](NC(=O)[C@H](CCCCN)NC(=O)[C@H](CCCCN)NC(=O)[C@@H](NC(=O)[C@H](Cc1ccc(O)cc1)NC(=O)[C@H](CCC(=O)O)NC(=O)[C@H](CCC(=O)O)NC(=O)[C@@H](NC(=O)[C@H](CCCCN)NC(=O)[C@H](CCCCN)NC(=O)[C@H](CC(=O)O)NC(=O)[C@H](Cc1c[nH]c2ccccc12)NC(=O)[C@H](CCC(=O)O)NC(=O)[C@H](CCC(=O)O)NC(=O)[C@H](Cc1c[nH]c2ccccc12)NC(C)=O)[C@@H](C)CC)[C@@H](C)O)[C@@H](C)CC)C(=O)N[C@@H](CCCCN)C(=O)N[C@@H](CCCCN)C(N)=O [SC21EK]
- IC50 [1]: 105 ± 12.8 nM
- CD data (with N36) Tm (°C) [2]: 56.9 °C

Structure (SMILES): CC[C@H](C)[C@H](NC(=O)[C@H](CC(C)C)NC(=O)[C@H](CCC(=O)O)NC(=O)[C@H](CCC(=O)O)NC(=O)[C@@H](NC(=O)[C@H](CCCCN)NC(=O)[C@H](CCCCN)NC(=O)[C@@H](NC(=O)[C@H](Cc1ccc(O)cc1)NC(=O)[C@H](CCC(=O)O)NC(=O)[C@H](CCC(=O)O)NC(=O)[C@@H](NC(=O)[C@H](CCCCN)NC(=O)[C@H](CCCCN)NC(=O)[C@H](CC(=O)O)NC(=O)[C@H](Cc1c[nH]c2ccccc12)NC(=O)[C@H](CCC(=O)O)NC(=O)[C@H](CCC(=O)O)NC(=O)[C@H](Cc1c[nH]c2ccccc12)NC(C)=O)[C@@H](C)CC)[C@@H](C)O)[C@@H](C)CC)C(=O)N[C@@H](CCCCN)C(=O)N[C@@H](CCCCN)C(=O)N[C@@H](CO)C(N)=O [SC22EK]
- IC50 [1]: 98.6 ± 7.2 nM
- CD data (with N36) Tm (°C) [2]: 59.5 °C

Structure (SMILES): CC[C@H](C)[C@H](NC(=O)[C@H](CC(C)C)NC(=O)[C@H](CCC(=O)O)NC(=O)[C@H](CCC(=O)O)NC(=O)[C@@H](NC(=O)[C@H](CCCCN)NC(=O)[C@H](CCCCN)NC(=O)[C@@H](NC(=O)[C@H](Cc1ccc(O)cc1)NC(=O)[C@H](CCC(=O)O)NC(=O)[C@H](CCC(=O)O)NC(=O)[C@@H](NC(=O)[C@H](CCCCN)NC(=O)[C@H](CCCCN)NC(=O)[C@H](CC(=O)O)NC(=O)[C@H](Cc1c[nH]c2ccccc12)NC(=O)[C@H](CCC(=O)O)NC(=O)[C@H](CCC(=O)O)NC(=O)[C@H](Cc1c[nH]c2ccccc12)NC(C)=O)[C@@H](C)CC)[C@@H](C)O)[C@@H](C)CC)C(=O)N[C@@H](CCCCN)C(=O)N[C@@H](CCCCN)C(=O)N[C@@H](CO)C(=O)N[C@@H](CCC(=O)O)C(N)=O [SC23EK]
- IC50 [1]: 94.2 ± 12.3 nM
- CD data (with N36) Tm (°C) [2]: 57.9 °C

Structure (SMILES): CC[C@H](C)[C@H](NC(=O)[C@H](CC(C)C)NC(=O)[C@H](CCC(=O)O)NC(=O)[C@H](CCC(=O)O)NC(=O)[C@@H](NC(=O)[C@H](CCCCN)NC(=O)[C@H](CCCCN)NC(=O)[C@@H](NC(=O)[C@H](Cc1ccc(O)cc1)NC(=O)[C@H](CCC(=O)O)NC(=O)[C@H](CCC(=O)O)NC(=O)[C@@H](NC(=O)[C@H](CCCCN)NC(=O)[C@H](CCCCN)NC(=O)[C@H](CC(=O)O)NC(=O)[C@H](Cc1c[nH]c2ccccc12)NC(=O)[C@H](CCC(=O)O)NC(=O)[C@H](CCC(=O)O)NC(=O)[C@H](Cc1c[nH]c2ccccc12)NC(C)=O)[C@@H](C)CC)[C@@H](C)O)[C@@H](C)CC)C(=O)N[C@@H](CCCCN)C(=O)N[C@@H](CCCCN)C(=O)N[C@@H](CO)C(=O)N[C@@H](CCC(=O)O)C(=O)N[C@@H](CCC(=O)O)C(N)=O [SC24EK]
- IC50 [1]: 75.7 ± 11.2 nM
- CD data (with N36) Tm (°C) [2]: 57.5 °C

Structure (SMILES): CC[C@H](C)[C@H](NC(=O)[C@H](CC(C)C)NC(=O)[C@H](CCC(=O)O)NC(=O)[C@H](CCC(=O)O)NC(=O)[C@@H](NC(=O)[C@H](CCCCN)NC(=O)[C@H](CCCCN)NC(=O)[C@@H](NC(=O)[C@H](Cc1ccc(O)cc1)NC(=O)[C@H](CCC(=O)O)NC(=O)[C@H](CCC(=O)O)NC(=O)[C@@H](NC(=O)[C@H](CCCCN)NC(=O)[C@H](CCCCN)NC(=O)[C@H](CC(=O)O)NC(=O)[C@H](Cc1c[nH]c2ccccc12)NC(=O)[C@H](CCC(=O)O)NC(=O)[C@H](CCC(=O)O)NC(=O)[C@H](Cc1c[nH]c2ccccc12)NC(C)=O)[C@@H](C)CC)[C@@H](C)O)[C@@H](C)CC)C(=O)N[C@@H](CCCCN)C(=O)N[C@@H](CCCCN)C(=O)N[C@@H](CO)C(=O)N[C@@H](CCC(=O)O)C(=O)N[C@@H](CCC(=O)O)C(=O)N[C@@H](CCC(N)=O)C(N)=O [SC25EK]
- IC50 [1]: 41.5 ± 3.1 nM
- CD data (with N36) Tm (°C) [2]: 57.3 °C

— PMC6669600 (Viruses, 2019)
